## HIV-1 LAI Vif substitutions under APOBEC3G selection

From the data files of Langley et al. 2025, preprint, doi:10.1101/2025.10.20.683452.

Vif of LAI (a laboratory-adapted subtype B strain), residues 12-115; positions count from the first residue of the whole protein:
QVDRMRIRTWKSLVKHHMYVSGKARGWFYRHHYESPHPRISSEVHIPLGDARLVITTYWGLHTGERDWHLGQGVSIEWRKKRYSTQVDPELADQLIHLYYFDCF

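A pool of vif mutants was passaged twice, 72 h each, on SupT1 cells that express APOBEC3G. Frequencies after the second round, in three biological replicates, were compared with the merged pool after the first round. Changes do not touch integrase, since the pol overlap was removed.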

The score is log2 enrichment against the wild-type codon: higher is better tolerated, lower is depleted.
Each entry names the wild-type residue, its position and the residue put in its place.
This list holds changes to tryptophan only.
The median of three replicates is given.
Input reads are the counts in the merged round-one pool, before selection.
The authors note that some positive scores may be noise, and some enriched variants failed when tested singly.

For Q12W (input reads 578) the result was -0.55.
For R15W (input reads 458) the result was -0.94.
For R17W (input reads 685) the result was -0.75.
For I18W (input reads 530) the result was -3.47.
For R19W (input reads 388) the result was -2.78.
For T20W (input reads 982) the result was -0.94.
For K22W (input reads 1452) the result was -0.42.
For S23W (input reads 235) the result was -3.15.
For L24W (input reads 527) the result was -0.18.
For V25W (input reads 126) the result was 0.39.
For K26W (input reads 813) the result was -3.33.
For H27W (input reads 221) the result was -2.32.
For H28W (input reads 561) the result was -1.18.
For M29W (input reads 348) the result was -3.47.
For Y30W (input reads 332) the result was -2.48.
For V31W (input reads 1252) the result was -1.39.
For S32W (input reads 54) the result was 0.35.
For G33W (input reads 1353) the result was -1.21.
For K34W (input reads 529) the result was -3.24.
For R36W (input reads 39) the result was 0.16.
For G37W (input reads 389) the result was -2.43.
For F39W (input reads 36) the result was -2.99.
For Y40W (input reads 16) the result was 1.29.
For R41W (input reads 520) the result was -1.77.
For H42W (input reads 61) the result was 3.20.
For H43W (input reads 418) the result was -1.08.
For Y44W (input reads 506) the result was -0.84.
For E45W (input reads 113) the result was 0.36.
For S46W (input reads 470) the result was 0.29.
For P47W (input reads 46) the result was 1.00.
For P49W (input reads 116) the result was 1.89.
For I51W (input reads 412) the result was -3.70.
For S53W (input reads 475) the result was -2.06.
For V55W (input reads 27) the result was 1.03.
For P58W (input reads 271) the result was -1.02.
For L59W (input reads 812) the result was -3.58.
For G60W (input reads 1486) the result was -0.95.
For A62W (input reads 1208) the result was -2.74.
For I66W (input reads 458) the result was -2.50.
For T67W (input reads 913) the result was -2.95.
For T68W (input reads 29) the result was 1.20.
For Y69W (input reads 568) the result was 0.28.
For G71W (input reads 27) the result was 1.77.
For H73W (input reads 487) the result was -3.29.
For T74W (input reads 404) the result was -4.15.
For G75W (input reads 1564) the result was -3.02.
For E76W (input reads 518) the result was -2.93.
For R77W (input reads 520) the result was -2.72.
For D78W (input reads 419) the result was -3.70.
For L81W (input reads 507) the result was -0.83.
For V85W (input reads 889) the result was -1.87.
For S86W (input reads 537) the result was -1.88.
For I87W (input reads 518) the result was -1.90.
For E88W (input reads 404) the result was -4.90.
For R90W (input reads 413) the result was 0.50.
For K92W (input reads 810) the result was -1.63.
For T96W (input reads 331) the result was -2.55.
For Q97W (input reads 326) the result was -1.76.
For V98W (input reads 370) the result was -2.28.
For D99W (input reads 498) the result was -2.61.
For P100W (input reads 167) the result was -1.28.
For I107W (input reads 596) the result was -1.06.
For Y111W (input reads 23) the result was -0.04.
For D113W (input reads 1143) the result was -3.81.
For C114W (input reads 75) the result was -0.13.
For F115W (input reads 26) the result was 2.40.

The last 3 entries again:

{"change": "D113W", "input reads": "1143", "log2 enrichment (median)": -3.81}
{"change": "C114W", "input reads": "75", "log2 enrichment (median)": -0.13}
{"change": "F115W", "input reads": "26", "log2 enrichment (median)": 2.40}

The scan is noisy: the rank correlation of replicates is about 0.4 to 0.65, and variants with under about 50 input reads tend to read too high.
Some changes are missing from the data or left out.